Measured values: PubChem BioAssay AID573 (SRMLSC, 2007)
This is a selection; strong and weak results do not stand in their true shares. Calls of active or inactive are those of the source.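 The calls were made as follows: active = growth inhibition at or above a cutoff equal to the mean over every tested compound plus 3 SD (cut at about 60% in these data); inactive = the rest.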

Assay: growth inhibitors of E. coli tolC mutant, primary screen, strain BW25113 ΔtolC::kan, 384-well (AID 573)
Details: OD615, stronger effect = higher value, screened at 10 µM (by protocol)
Outline: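 Test system: tolC-deleted E. coli BW25113; medium: LB with kanamycin 50 µg/mL; compound: single-point testing at 10 µM; incubation: 20 h compound exposure of bacteria at 37 °C; signal: OD at 615 nm; evaluation: growth inhibition in percent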

Compound	growth inhibition
O=P(Nc1nccs1)(c1ccccc1)c1nc2ccccc2s1 (stereo not given)	inactive: 7.27%
CCOP1(=S)c2c(C)nn(CCC#N)c2N=C(c2ccccc2F)N1C (stereo not given)	inactive: 1.98%
CCOP1(=S)c2c(C)nn(CCC#N)c2N=C(c2ccc(F)cc2)N1C (stereo not given)	inactive: -2.64%
Cc1cccc(OCC(=O)OC2CN3CCC2CC3)c1 (stereo not given)	inactive: 7.01%
Clc1n[nH]nc1-c1nn[nH][15n]1	inactive: -15.7%
O=P1(Nc2ccccn2)COc2ccccc2OC1	inactive: -11.6%
Cc1nn(-c2ccccc2)c2c1P(=O)(N1CCOCC1)N(C)C(c1ccccc1)=N2 (stereo not given)	inactive: 2.98%
Cc1ccc(OCC(=O)OC2CN3CCC2CC3)cc1 (stereo not given)	inactive: 8.99%
O=P1(Nc2ccc(Br)cn2)COc2ccccc2OC1	inactive: 6.85%
O=P1(Nc2ncccn2)COc2ccccc2OC1	inactive: -16.4%
O=C(COc1ccccc1)OC1CN2CCC1CC2 (stereo not given)	inactive: -18.9%
COP1(=S)c2c(C)nn(CCC#N)c2N=C(c2ccc(F)cc2)N1C (stereo not given)	inactive: 6.61%
O=C(OC1CN2CCC1CC2)C12CC3CC(CC(C3)C1)C2 (stereo not given)	inactive: -34%
Cc1c2non([O-])c-2c(C)[n+](=O)[n+]1[O-]	inactive: 14.5%
CCc1nc2c(n1)c1c(non1O)c1c2no[n+]1[O-]	inactive: 5.44%
O=C(OC1CN2CCC1CC2)c1cccc(Cl)c1 (stereo not given)	inactive: 9.84%
c1nnnn1CCn1cnnn1	inactive: -2.28%
O=P(Nc1nccs1)(c1ccccc1)c1ccccc1	inactive: 3.82%
O=P1(Nc2nc3ccc(Cl)cc3s2)COc2ccccc2O1 (stereo not given)	inactive: -10.6%
COC(=O)c1cc2c(s1)N=C(c1ccccc1)N(C)P2(=O)N1CCOCC1 (stereo not given)	inactive: -1.56%
